Experimental data published in PMC5609037, “Selective inhibition of PfA-M1, over PfA-M17, by an amino-benzosuberone derivative blocks malaria parasites development in vitro and in vivo” (Malaria Journal, 2017).

By UniProt entry, the sequences of proteins in these tests, tags left out. Residues count along the entry.
UniProt O96935, 192-1085 limits assumed: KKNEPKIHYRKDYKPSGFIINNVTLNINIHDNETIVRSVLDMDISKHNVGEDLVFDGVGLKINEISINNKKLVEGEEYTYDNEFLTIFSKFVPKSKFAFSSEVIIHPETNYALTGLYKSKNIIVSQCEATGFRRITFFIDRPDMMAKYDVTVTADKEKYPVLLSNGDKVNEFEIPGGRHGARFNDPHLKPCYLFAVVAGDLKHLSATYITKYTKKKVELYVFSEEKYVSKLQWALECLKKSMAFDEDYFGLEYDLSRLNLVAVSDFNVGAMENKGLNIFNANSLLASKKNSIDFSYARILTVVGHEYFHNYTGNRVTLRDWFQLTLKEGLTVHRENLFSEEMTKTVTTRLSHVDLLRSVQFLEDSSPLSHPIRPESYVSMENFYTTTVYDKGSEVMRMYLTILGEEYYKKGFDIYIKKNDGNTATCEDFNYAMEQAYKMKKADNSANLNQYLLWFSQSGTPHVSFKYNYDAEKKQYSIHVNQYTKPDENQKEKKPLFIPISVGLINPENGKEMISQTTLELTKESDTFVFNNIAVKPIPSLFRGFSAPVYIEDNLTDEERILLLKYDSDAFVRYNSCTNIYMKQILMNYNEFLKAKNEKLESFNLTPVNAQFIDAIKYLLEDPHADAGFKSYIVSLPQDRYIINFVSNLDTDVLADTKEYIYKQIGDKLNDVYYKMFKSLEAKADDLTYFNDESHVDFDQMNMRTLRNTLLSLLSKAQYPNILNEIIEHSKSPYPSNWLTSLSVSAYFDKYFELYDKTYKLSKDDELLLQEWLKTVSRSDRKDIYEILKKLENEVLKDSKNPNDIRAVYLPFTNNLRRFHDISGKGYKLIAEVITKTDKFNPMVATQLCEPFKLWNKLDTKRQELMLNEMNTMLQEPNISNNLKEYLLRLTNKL

Biological target: PfA-M1 (P. falciparum alanyl aminopeptidase, M1 family aminopeptidase) (Plasmodium falciparum, UniProt O96935)
Test: Ala-pNA hydrolysis at […] nm, Ki by Dixon plots
Details: tested form: HCl

NC1CCc2cccc(-c3ccccc3)c2CC1=O (stereo not shown)
Ki: 50 nM
